A mixed list of measured activities; the numbers were collected in NIAID ChemDB.

Shared fields: growth or infection tests

Rows are shuffled and stem from different studies. Blank or dashed fields: not listed here. ECn is the concentration giving n% inhibition of infection, replication or growth. Inhibition is in % at the dose shown (toxicity tests: loss of growth or viability). A number after MIC or MFC names an inhibition level or a share of isolates. a–b is a range or a potency band.

compound | species | strain or isolate | mutations | cells | method | conditions | measure | tested at | result
CCc1cn([C@@H]2O[C@H](CO)[C@@H](O)[C@@H]2O)c(=O)[nH]c1=O | Varicella zoster virus | HIRAI |  | HELF | plaque count |  | inhibition | 100 µg/mL | 47%
N=C(N)c1ccc2nc(-c3ccc(-c4nc5ccc(C(=N)N)cc5[nH]4)[nH]3)[nH]c2c1 | Candida albicans | Isolate 3028 fluconazole-resistant |  |  |  |  | MFC |  | 0.78 µg/mL
N#Cc1cc([N+](=O)[O-])ccc1Oc1ccc(Cl)c(Cl)c1 | Coxsackie virus | TYPE B4 |  | VERO | plaque count |  | inhibition | 0.5 µg/mL | 61.4%
CCC(C)CC(C)CCCCCCCCC(=O)N[C@H]1C[C@@H](O)[C@H](NCCN)NC(=O)[C@@H]2[C@@H](O)CCN2C(=O)[C@H]([C@H](O)CCN)NC(=O)[C@H]([C@H](O)[C@@H](O)c2ccc(O)cc2)NC(=O)[C@@H]2C[C@@H](O)CN2C(=O)[C@H]([C@@H](C)O)NC1=O | Cryptococcus gattii | CBS 10090 |  |  | broth dilution |  | MIC |  | 32 µg/mL
O=c1[nH]c(=O)n([C@@H]2O[C@H](CO)[C@@H](O)[C@@H]2O)cc1/C=C/Br | Varicella zoster virus | HIRAI |  | HELF | plaque count |  | inhibition | 0.01 µg/mL | 100%
CCC(CC)[C@H](NC(C)=O)[C@@H]1C[C@@H](C(=O)O)C[C@H]1N=C(N)N | Influenza B virus | LEE/40 |  | MDCK |  |  | EC50 |  | 8 µM
COc1ccc(CNC(=O)c2c3n(c(=O)n2CCc2ccccc2)CCN(C(=O)c2ccc(Br)c(Cl)c2)C3)cc1 | Hepatitis B virus |  |  | Hep2.117 |  |  | EC50 |  | >5 µM
O=C1Nc2ccc(Cl)cc2[C@@](C#CC2CC2)(C(F)(F)F)N1 | HIV-1 |  | RT-L100I |  |  |  | EC90 |  | 0.006 µM
Nc1ncnc2c1ncn2[C@@H]1C[C@H](N)[C@@H](O)[C@H]1O | Measles virus | Halonen |  | CV-1 | cytopathic effect |  | EC50 |  | 0.4 µg/mL
COc1cccc2c1C(=O)c1cnn(C)c1C2=O | Cryptosporidium parvum |  |  |  |  |  | EC50 |  | >100 µM
O=c1[nH]c(=O)n([C@H]2C[C@H](O)[C@@H](CO)O2)cc1/C=C/Br | Varicella zoster virus | KANNO |  | HELF | plaque count |  | inhibition | 0.1 µg/mL | 100%
CCOC(=O)c1c(C)nc(NCCCCNc2ccnc3cc(Cl)ccc23)nc1-c1ccc(F)cc1 | Cryptococcus neoformans | 96806 |  |  |  |  | MIC99 |  | 45.3 µg/mL
CS[C@H]1C[C@@H](n2cnc3c(N)ncnc32)[C@H](O)[C@@H]1O | Measles virus |  |  | CV-1 | neutral red |  | EC50 |  | >100 µg/mL
NS(=O)(=O)c1ccc(-n2c(C(=O)NCc3ccccc3)c3n(c2=O)CCN(C(=O)c2ccc(Br)c(Cl)c2)C3)cc1 | Hepatitis B virus |  |  | HepG2.117 | PCR |  | EC50 |  | >5 µM
O=c1oc2ccc(Br)cc2c(=S)n1-c1cccc(Cl)c1 | Mycobacterium kansasii | 6509/96 |  |  |  | 14 d | MIC |  | 2 µM
CCOC(=O)c1c(C)nc(NCCCCNc2ccnc3cc(Cl)ccc23)nc1-c1ccccc1 | Cryptococcus gattii | 29/10893 |  |  |  |  | MIC99 |  | 4 µg/mL
COc1ccc2oc(=S)n(-c3ccc(C(F)(F)F)cc3)c(=S)c2c1 | Mycobacterium kansasii | 6509/96 |  |  |  | 21 d | MIC |  | 32 µM
CC(C)CS[C@@H]1C[C@H](n2cnc3c(N)ncnc32)[C@@H](O)[C@H]1O | Measles virus |  |  | CV-1 | cytopathic effect |  | EC50 |  | >100 µg/mL
Oc1ccccc1N=Cc1ccccc1 | Cryptococcus gattii | 196L/03 |  |  |  |  | MIC99 |  | 8 µg/mL
O=c1[nH]c(=O)n([C@@H]2O[C@H](CO)[C@@H](O)[C@@H]2O)cc1/C=C/Cl | Varicella zoster virus | Kawaguchi |  | HELF | plaque count |  | inhibition | 0.01 µg/mL | 100%
[N-]=[N+]=N[C@H]1C[C@@H](n2cnc3c(N)ncnc32)[C@H](O)[C@@H]1O | Measles virus |  |  | CV-1 | neutral red |  | EC50 |  | 0.5 µg/mL
O=C1c2cccc(Cl)c2C(=O)c2cn[nH]c21 | Cryptosporidium parvum |  |  |  |  |  | inhibition | 10 µM | 17%
Cc1ccc2oc(=S)n(-c3cccc(F)c3)c(=S)c2c1 | Mycobacterium kansasii | 6509/96 |  |  |  | 21 d | MIC |  | 16 µM
Nc1nc2c(ncn2C=C2CC2CO)c(=O)[nH]1 | Human cytomegalovirus | VR3480 (ganciclovir-resistant) |  |  | plaque count |  | EC50 |  | 1.8 µM
O=C1Nc2ccc(F)c(F)c2[C@@](/C=C/C2CC2)(C(F)(F)F)N1 | HIV-1 |  | RT-G190S |  |  |  | EC90 |  | ~0.125 µM
Cn1ncc2c1C(=O)c1cccc(O)c1C2=O | Cryptosporidium parvum |  |  |  |  |  | inhibition | 100 µM | 100%
Nc1ncnc2c1ncn2[C@@H]1C=C[C@@H](O)[C@H]1O | Measles virus | CC |  | CV-1 | neutral red |  | EC50 |  | 0.05 µg/mL
O=C1c2cccc(O)c2C(=O)c2cn[nH]c21 | Cryptosporidium parvum |  |  |  |  |  | inhibition | 50 µM | 44%
Cc1cc(CCCOc2c(C)cc(-c3noc(C(F)(F)F)n3)cc2C)on1 | Rhinovirus | Isolate 7 |  | OHIO HELA-I | cytopathic effect / visual reading |  | EC50 |  | 0.22 µg/mL
O=C1c2ccccc2C(=O)c2[nH]ncc21 | Cryptosporidium parvum |  |  |  |  |  | EC50 |  | >100 µM
CN[C@H]1CC[C@@H](c2ccc(Cl)c(Cl)c2)c2ccccc21 | Cryptococcus neoformans | Bt50 |  |  | broth dilution |  | MFC |  | 10 µg/mL
CCOC(=O)c1ccc(OCCC2CCN(c3ccc(C)nn3)CC2)cc1 | Rhinovirus | A2#58 (ICAM-1 receptor group 50) |  | KB | neutral red |  | EC50 |  | 0.027 µM
C[C@H](NC(=O)C1C2CN(C(=O)c3ccc(Br)c(Cl)c3)CCN2C(=O)N1c1ccc(OC2CC2)cc1)c1ccccc1 | Hepatitis B virus |  |  | HepG2.117 | PCR |  | EC50 |  | 0.1–0.5 µM
Fc1ccc(-n2c(=S)oc3ccc(Br)cc3c2=S)cc1 | Mycobacterium kansasii | My 235/80 |  |  |  | 21 d | MIC |  | 16 µM
C=CCc1ccc(O)c(OC)c1 | Candida tropicalis | 3000 |  |  | turbidity |  | MIC90 |  | 490 µg/mL
OC[C@H]1O[C@@H](n2c(Br)nc3cc(Cl)c(Cl)cc32)[C@H](O)[C@@H]1O | Human cytomegalovirus | Recombinant C4 (D341E) |  |  | virus yield |  | EC50 |  | <4.8 µM
C[C@H](NC(=O)c1c2n(c(=O)n1-c1ccc(OC3CC3)cc1)CCN(C(=O)c1ccc(Br)c(Cl)c1)C2)c1ccc(O[C@H](C)C(N)=O)cc1F | Hepatitis B virus |  |  | HepG2.117 | PCR |  | EC50 |  | 0.1–0.5 µM
CCC(CC)O[C@@H]1C=C(C(=O)O)C[C@H](N)[C@H]1NC(C)=O | Influenza A virus | Influenza A/Shandong/09/93 (H3N2) |  | MDCK |  |  | EC50 |  | 0.32 µM
Nc1ncnc2c1ncn2[C@@H]1CC[C@@H](O)[C@H]1O | Measles virus | Edmonston |  | CV-1 | cytopathic effect |  | EC50 |  | >64 µg/mL
CCCC(CCC)C(NC(C)=O)C1C(N=C(N)N)CC(C(=O)O)C1O | Influenza B virus | Panama/45/90 |  | MDCK |  |  | EC50 |  | 0.8 µM
O=[N+]([O-])c1ccc(C=Nc2ccccc2O)cc1 | Cryptococcus gattii | L24/01 |  |  |  |  | MIC99 |  | 16 µg/mL
O=C(NCc1ccc(Cl)cc1)c1c[nH]c2c(F)cccc2c1=O | Human cytomegalovirus | DAVIS |  |  | plaque count |  | EC50 |  | 6.7 µM
Cc1cn([C@@H]2O[C@H](CO)[C@@H](O)[C@@H]2F)c(=O)nc1N | Varicella zoster virus | OKA |  | HELF | plaque count |  | inhibition | 0.001 µg/mL | 3%
C[C@@H](c1ncncc1F)[C@](O)(Cn1cncn1)c1ccc(F)cc1F | Cryptococcus gattii | VG IIb |  |  | broth dilution |  | MIC90 |  | 0.125 µg/mL
CO[C@H]1/C=C/O[C@@]2(C)Oc3c(C)c(O)c4c(O)c(c5c(c4c3C2=O)NC2(CCN(CC(C)C)CC2)N=5)=NC(=O)/C(C)=C\C=C\[C@H](C)[C@H](O)[C@@H](C)[C@@H](O)[C@@H](C)[C@H](OC(C)=O)[C@@H]1C | Mycobacterium avium intracellulare | 1296 |  |  |  |  | MIC |  | 0.125 µg/mL
CCCC(CCC)C(NC(C)=O)C1CC(C(=O)O)CC1N=C(N)N | Influenza A virus | H3N2 A/X-31 |  | MDCK |  |  | EC50 |  | <0.01 µM
CCOC(=O)c1cnc(NCCCCNc2ccnc3cc(Cl)ccc23)nc1C | Cryptococcus gattii | 29/10893 |  |  |  |  | MIC99 |  | 4 µg/mL

Again, the opening 6 rows:

compound | species | strain or isolate | mutations | cells | method | conditions | measure | tested at | result
CCc1cn([C@@H]2O[C@H](CO)[C@@H](O)[C@@H]2O)c(=O)[nH]c1=O | Varicella zoster virus | HIRAI |  | HELF | plaque count |  | inhibition | 100 µg/mL | 47%
N=C(N)c1ccc2nc(-c3ccc(-c4nc5ccc(C(=N)N)cc5[nH]4)[nH]3)[nH]c2c1 | Candida albicans | Isolate 3028 fluconazole-resistant |  |  |  |  | MFC |  | 0.78 µg/mL
N#Cc1cc([N+](=O)[O-])ccc1Oc1ccc(Cl)c(Cl)c1 | Coxsackie virus | TYPE B4 |  | VERO | plaque count |  | inhibition | 0.5 µg/mL | 61.4%
CCC(C)CC(C)CCCCCCCCC(=O)N[C@H]1C[C@@H](O)[C@H](NCCN)NC(=O)[C@@H]2[C@@H](O)CCN2C(=O)[C@H]([C@H](O)CCN)NC(=O)[C@H]([C@H](O)[C@@H](O)c2ccc(O)cc2)NC(=O)[C@@H]2C[C@@H](O)CN2C(=O)[C@H]([C@@H](C)O)NC1=O | Cryptococcus gattii | CBS 10090 |  |  | broth dilution |  | MIC |  | 32 µg/mL
O=c1[nH]c(=O)n([C@@H]2O[C@H](CO)[C@@H](O)[C@@H]2O)cc1/C=C/Br | Varicella zoster virus | HIRAI |  | HELF | plaque count |  | inhibition | 0.01 µg/mL | 100%
CCC(CC)[C@H](NC(C)=O)[C@@H]1C[C@@H](C(=O)O)C[C@H]1N=C(N)N | Influenza B virus | LEE/40 |  | MDCK |  |  | EC50 |  | 8 µM